Anti-infective test results gathered from many reports (values: NIAID ChemDB through PubChem).

All rows: cytotoxicity tests; read-out: CC50

An empty or dashed field is not shown.

structure	method	cell line	value
COc1ccc(C[C@H](N)C(=O)N[C@H]2[C@@H](O)[C@H](n3cnc4c(N(C)C)ncnc43)O[C@@H]2CO)cc1	WST	HEPG2 (HB-8065)	0.24 µg/mL
Nc1ccn([C@@H]2O[C@H](CO)[C@@H](CO)[C@@H]2F)c(=O)n1		PBM	≥100 µM
CCN(CC)CCN1C(=O)c2ccccc2NC1c1cccc(F)c1	luminescence	HepG2 cells	>20 µM
O=S(=O)([O-])OC[C@@H]1C[C@H](O)[C@@H](OS(=O)(=O)[O-])[C@H](O[C@H]2[C@H](O)[C@@H](O)[C@H](O[C@@H]3OC[C@@H](O[C@H]4[C@@H](OS(=O)(=O)[O-])[C@@H](OS(=O)(=O)[O-])[C@H](O)O[C@@H]4CO)[C@H](O)[C@H]3O)O[C@@H]2CO)O1	MTT	P4R5	>100 µg/mL
CC/C=C/C1=C(O)c2ccccc2C(=O)C1=O		2C4 fibroblasts	>50 µg/mL
O=C1c2ccccc2NC(c2ccc(Cl)cc2)N1C1CC1	luminescence	HepG2 cells	>20 µM
Cc1cc(C2CC2)n2nc(S(=O)(=O)Nc3c(C)csc3S(C)=O)nc2n1	WST	HEPG2 (HB-8065)	>128 µg/mL
Nc1ncnc2c1c(-c1ccco1)cn2[C@H]1O[C@H](CO)[C@@H](O)C1(F)F	XTT	Replicon cells	>44 µM
O=c1cc(Nc2cccc(-c3ccccc3)c2)c2cccnc2n1O		HeLa	<100 µM
CCCCN1C(c2sc(C)nc2C)=NNC1SCc1ccc(OC)cc1	MTT	143B	<100 µM
CCN(CC)CCN1C(=O)c2ccccc2NC1c1ccc(OC)c(COc2cc(C(C)C)c(Cl)cc2C)c1	luminescence	HepG2 cells	>20 µM
Nc1ncnc2c1c(I)cn2[C@@H]1O[C@H](CO)[C@@H](O)[C@H]1F	XTT	Replicon cells	10.2 µM
Cc1cccc(Cn2c(-c3ccc(-n4cncn4)cc3)nc3c(F)cc(F)cc32)c1	neutral red / absorbance	Vero-C-1008	>50 µg/mL
Clc1ccc2nc(/C=C/c3ccccc3)cc(Cl)c2c1	MTT	TZM-bl	7.66 µM
C[C@H]1COc2c(N3CCc4ccccc4C3C(=O)NC(C)(C)C)c(F)cc3c(=O)c(C(=O)O)cn1c23	MTT	Mammalian Vero cells	127 µM
Cc1cc(NCCN2CCOCC2)c2ccc3c(ccc4c(NCCN5CCOCC5)cc(C)nc43)c2n1	MTT	Macrophage line RAW 264.7	0.00984 µM
COc1ccc(CSC2NN=C(c3sc(C)nc3C)N2C23CC4CC(CC(C4)C2)C3)cc1	MTT	143B	>100 µM
Nc1ncnc2c1c(-c1ccccc1)cn2[C@@H]1O[C@H](CO)[C@@H](O)C1(F)F	XTT	Replicon cells	18.86 µM
CC1COc2c(N3CCc4ccccc4C3C(=O)NC(C)(C)C)c(F)c([N+](=O)[O-])c3c(=O)c(C(=O)O)cn1c23	MTT	Mammalian Vero cells	116 µM
Cc1ccc(C2Nc3ccccc3C(=O)N2CCCCN2CCOCC2)cc1	luminescence	HepG2 cells	>30 µM
Fc1cc(F)c2nc(-c3ccc(-n4cncn4)cc3)n(Cc3cccc(C(F)(F)F)c3)c2c1	neutral red / absorbance	Vero-C-1008	>50 µg/mL
CC(C)c1cc2c(o1)-c1ccccc1C(=O)C2=O		2C4 fibroblasts	0.01 µg/mL
C#Cc1cn([C@@H]2O[C@H](CO)[C@@H](O)[C@H]2F)c2ncnc(N)c12	XTT	Replicon cells	12.38 µM
CC1(C)CCC2=C(O1)C(=O)c1ccccc1C2=O		2C4 fibroblasts	0.01 µg/mL
CCCCCCN=C(N)c1ccc(N2CCN(c3ccc(C(N)=NCCCCCC)cc3)CC2)cc1		A549	>0.409 µg/mL
O=c1cc(-c2ccc(-c3ccn[nH]3)cc2)c2cccnc2n1O		HeLa	<100 µM
C[C@H]1COc2c(N3CCC(n4c(=O)[nH]c5cc(Cl)ccc54)CC3)c(F)c([N+](=O)[O-])c3c(=O)c(C(=O)O)cn1c23	MTT	Mammalian Vero cells	112 µM
CCN1CCC(O)(/C=C/c2ccc(Cl)cc2)C(C(=O)/C=C/c2ccc(Cl)cc2)C1		55 different human tumor cells	12.01 µg/mL
CC1CN(c2c(F)c([N+](=O)[O-])c3c(=O)c(C(=O)O)cn4c3c2OCC4C)CC(C)O1	MTT	Mammalian Vero cells	148 µM
Nc1ncnc2c1c(-c1ccoc1)cn2[C@@H]1O[C@H](CO)[C@@H](O)C1(F)F	XTT	Replicon cells	>44 µM
COc1ccc(/C=C/c2cc(Cl)c3cc(Cl)ccc3n2)cc1	MTT	TZM-bl	19.08 µM
Cc1cc(C2CC2)n2nc(S(=O)(=O)Nc3c(Br)cccc3Br)nc2n1	WST	K562 (CRL-1573)	>128 µg/mL
CCCCC(=O)OC1CC(OC(C)C(C)C(O)C(C)C(O)C(C)C2OC(=O)/C=C/CC(O)CC(O)CC(O)CCC(C)C(O)C[C@@]3(O)O[C@H](CC(O)CC(OC(=O)CC(=O)O)CCCC(O)C4OC4C2C)C[C@H](O)[C@H]3O)OC(C)C1O		MOLT-3	>100 µg/mL
C#Cc1cn([C@@H]2O[C@H](CO)[C@@H](O)C2(F)F)c2ncnc(N)c12	XTT	Replicon cells	10.94 µM
O=c1cc(N2CCc3ccc(-c4cccc(F)c4)cc3C2)c2cccnc2n1O		HeLa	<100 µM
CCN(CC)CCN1C(=O)c2ccccc2NC1c1ccc(C)cc1	luminescence	HepG2 cells	>30 µM
OC(Cn1cncn1)(Cn1cncn1)c1ccc(F)cc1F	MTT	293T	>400 µM
Nc1ncnc2c1c(-c1ccsc1)cn2[C@@H]1O[C@H](CO)[C@@H](O)[C@H]1F	XTT	Replicon cells	27.55 µM
O=c1cc(OCc2cccc(Cl)c2)oc2ccc(OCc3cccc(Cl)c3)c(O)c12	MTT	Hs27	>50 µM
Fc1cc(F)c2nc(-c3ccc(-n4cncn4)cc3)n(Cc3cccc(Cl)c3)c2c1	neutral red / absorbance	Vero-C-1008	>50 µg/mL
NCc1cccc(-c2cccc(Cc3ccnc4c3c(O)cc(=O)n4O)c2)c1		HeLa	<100 µM
CCCCCCCCCCN=C(N)c1ccc(N2CCN(c3ccc(C(N)=NCCCCCCCCCC)cc3)CC2)cc1		WI-38	7.64 µg/mL
CSC1NN=C(c2sc(C)nc2C)N1C1C2CC3CC(C2)CC1C3	MTT	KBALB	<100 µM
CC1(C)CCC2C(=O)C(=O)c3ccccc3C2O1		2C4 fibroblasts	20 µg/mL
Cc1cc(Cl)c2ccccc2n1	MTT	TZM-bl	134 µM
Nc1ncnc2c1ncn2[C@@H]1O[C@H](CO)[C@@H](O)[C@@H]1O		HEP II	320 µg/mL
Nc1ncnc2c1c(-c1ccsc1)cn2[C@H]1O[C@H](CO)[C@@H](O)C1(F)F	XTT	Replicon cells	>44 µM
CCOC(=O)c1c(O)c2cc(Oc3ccc(N)cc3)cnc2n(O)c1=O		HeLa	<100 µM
CCCn1c(-c2ccc(-n3cncn3)cc2)nc2c(F)cc(F)cc21	neutral red / absorbance	Vero-C-1008	>50 µg/mL
CCCc1cc2c(o1)C(=O)c1ccccc1C2=O		2C4 fibroblasts	5 µg/mL
CC(C)CCN=C(N)c1ccc(N2CCN(c3ccc(C(N)=NCCC(C)C)cc3)CC2)cc1		WI-38	>0.9 µg/mL
Cc1nc(C)c(C(=O)NNC(=S)NC23CC4CC(CC(C4)C2)C3)s1	MTT	143B	>100 µM
O=C(c1ncc(-c2c[nH]c3ccccc23)[nH]1)c1c[nH]c2cc(O)ccc12		P-388	2 µg/mL
O=C1C(=O)c2ccccc2C(O)=C1/C=C/Cc1ccccc1		2C4 fibroblasts	>50 µg/mL
NC(=NC1CCCCCCC1)c1ccc(N2CCN(c3ccc(C(N)=NC4CCCCCCC4)cc3)CC2)cc1		A549	>1.95 µg/mL
O=c1cc(OCc2cccc(I)c2)oc2ccc(OCc3cccc(Cl)c3)c(O)c12	MTT	Hs27	>50 µM
CCCCN1C(c2sc(C)nc2C)=NNC1SCc1ccc(C(F)(F)F)cc1	MTT	143B	>100 µM
Clc1ccc2nc(/C=C/c3ccco3)cc(Cl)c2c1	MTT	TZM-bl	41.02 µM
NC(=NC1CCCCCC1)c1ccc(N2CCN(c3ccc(C(N)=NC4CCCCCC4)cc3)CC2)cc1		WI-38	>0.69 µg/mL
Cc1ccc(S(=O)(=O)n2c(-c3ccc(-n4cncn4)cc3)nc3c(F)cc(F)cc32)cc1	neutral red / absorbance	Vero-C-1008	>50 µg/mL
Cc1nnsc1C(=O)NNC(=S)Nc1ccc2ccccc2c1	MTT	KBALB	>100 µM
CC(C)c1cc2c(o1)C(=O)c1ccccc1C2=O		2C4 fibroblasts	1 µg/mL

The last 5 rows once more:

Clc1ccc2nc(/C=C/c3ccco3)cc(Cl)c2c1 ; method: MTT ; cell line: TZM-bl ; value: 41.02 µM
NC(=NC1CCCCCC1)c1ccc(N2CCN(c3ccc(C(N)=NC4CCCCCC4)cc3)CC2)cc1 ; cell line: WI-38 ; value: >0.69 µg/mL
Cc1ccc(S(=O)(=O)n2c(-c3ccc(-n4cncn4)cc3)nc3c(F)cc(F)cc32)cc1 ; method: neutral red / absorbance ; cell line: Vero-C-1008 ; value: >50 µg/mL
Cc1nnsc1C(=O)NNC(=S)Nc1ccc2ccccc2c1 ; method: MTT ; cell line: KBALB ; value: >100 µM
CC(C)c1cc2c(o1)C(=O)c1ccccc1C2=O ; cell line: 2C4 fibroblasts ; value: 1 µg/mL

CCn: concentration that lowers growth or viability of the cells by n%. Lines come from different laboratories, so protocols vary.